In paper PMC4369170 (ACS chemical biology, 2015):

tested on: pfent1Δ parasites; assay: Efficacy against pfent1Δ parasites; conditions: ratio of IC50 pfent1Δ to IC50 WT Dd2

Row | SMILES | IC50 in pfent1Δ parasites compared to WT Dd2
1 | O=C(Nc1ccc2nc(NC(=O)c3ccco3)sc2c1)c1ccco1 [Compound 1, N,N'-1,3-benzothiazole-2,6-diyldi(2-furamide)] | 3–4 fold
2 | O=C(Nc1ccc(-c2nc3ncccc3o2)cc1)c1ccccc1Br [Compound 2, 2-bromo-N-(4-[1,3]oxazolo[4,5-b]pyridin-2-ylphenyl)benzamide] | 3–4 fold
3 | COc1cc(COc2ccc3c(C)cc(=O)oc3c2)cc(OC)c1OC [Compound 3, 4-methyl-7-[(3,4,5-trimethoxybenzyl)oxy] -2H-chromen-2-one] | 3–4 fold
4 | Cn1cc(C(=O)C(=O)Nc2ccc(C(=O)N3CCCC3)cc2)c2ccccc21 [Compound 5, 2-(1-methyl-1H-indol-3-yl)-2-oxo-N-[4-(pyrrolidin-1-ylcarbonyl)phenyl]acet amide] | similar
